Results published in patent US11696914B1 (priority 2019, dated 2023).

Assays:
Assay type in all cases: cell-based
Settings in all cases: ratio CC50 / IC50
[1] = system: Ebola virus/H.sapiens-tc/GIN/2014/Makona-005 (EBOV/Mak)
[2] = system: Ebola virus/H.sapiens-tc/COD/1976/Yambuku-Mayinga (EBOV/May)
[3] = system: Marburg virus/H.sapiens-tc/KEN/1980/Mt. Elgon-Musoke (MARV/Mus)

Work on `COc1ccc2nc3cc(Cl)ccc3c(Nc3cc(CN4CCCC4)c(O)c(CN4CCCC4)c3)c2n1` [Pyronaridine, 4-[(7-Chloro-2-methoxybenzo[b][1,5]naph-thyridin-10-yl)amino]-2,6-bis(1-pyrrolidinylmethyl)phenol phosphate (1:4)] yielded an SI [1] of 5.0, an SI [2] of 4.1 and an SI [3] of 4.1.
For `CCN(CC)CCCC(C)Nc1c2ccc(Cl)cc2nc2ccc(OC)cc12` (stereo not drawn) [Quinacrine], the SI [1] was 8.2, the SI [2] was 5.8 and the SI [3] was 5.5.
Work on `CCN(CC)CCOc1ccc2c(c1)C(=O)c1cc(OCCN(CC)CC)ccc1-2` [Tilorone] yielded an SI [1] of 15.9, an SI [2] of 15.0 and an SI [3] of 8.8.
